Measurements as given in US20050215772A1, “Furanone derivatives and methods of making same” (priority 2002, published 2005).

Tested on: V. cholerae
Assay: Cholera toxin production by V. cholerae

Row | Structure (SMILES) | reduction in cholera toxin production
1 | CCCC(Br)C1=CC(=C(Br)Br)N(c2ccccc2)C1=O (centres unmarked) | 40% reduction in cholera toxin production by V. cholerae
2 | O=C1C=C(Br)/C(=C/Nc2ccccc2)O1 | 40% reduction in cholera toxin production by V. cholerae
